Source: patent US10632172B2, “Injectable self-assembling antibacterial peptide hydrogels” (New Jersey Institute of Technology, priority 2018, dated 2020)
“Also recorded” adds a separate entry of the source.

Experiment: In vivo subcutaneous implantation of hydrogel, histology
Set-up: species or system Wistar rats
Conditions: rat; for cellular infiltration of implant at 7 days: histology
Experimental: To test the in vivo persistence of the peptide, Wistar rats were subcutaneously injected with 200 μL CASP-K6 hydrogel (2% w/v). Because of the thixotropic nature of the hydrogel, it reconstituted post-injection in the subcutaneous pocket. At prescribed time intervals (1, 3, and 7 days), the rats were sacrificed and the dorsal skin covering the implant was removed for histological examination. Used was hematoxylin and eosin (H&E) FIGS. 15A-15B, and Masson's trichrome staining FIGS. 15C-15D) to analyze the tissue sections.
For in vivo subcutaneous implantations, NJIT-Rutgers animal care facility was used. Injected was ˜200 μL CASP-K6 hydrogels in the subcutaneous pocket (dorsal aspect) of female Wistar rats (˜250 g, Charles River) (four implants (n=4) per rat). At the specified time points (1 day, 3 day, and 7 day), the animals were sacrificed and regions around the implant were excised, fixed, and processed. Hematoxylin and eosin (H&E) and Masson's trichrome staining was used for histologic analysis.

Row | Substance | cellular infiltration of implant at 7 days | cellular infiltration of implant at day 3 (day 3, histology)
1 | KKSLSLSLSLSLSLKK (CASP-K2) [cationic amphiphilic self-assembling peptide, previously reported as a multifunctional scaffold] | relatively higher degrees of infiltration | –
2 | Ac-KKKKKKSLSLSLSLSLSLKKKKKK-NH2 [CASP-K6] | lightly infiltrated with cells; also recorded: little cellular infiltration | cellular infiltration is observed on day 3 at the periphery of the hydrogel
